Record: PubChem BioAssay AID504761 (Drosophila RNAi Screening Center, 2011)

Screen: 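Fly genes whose silencing reduces dengue virus type 2 infection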 (primary screen)
System: D.Mel-2 cells from Drosophila
Reagents: long dsRNA against Drosophila genes
Challenge: infection with dengue virus type 2; dose and infection time not stated
Read-out: 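Cells stained for dengue envelope protein and imaged; percent of infected cells per well on duplicate plates, ranked by infection, with stained nuclei counted for cell number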
Direction: infection score: higher = more virus-infected cells; cell count: higher = more cells in the well
Call rule: 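Low infection ranks in the two replicates (chance level up to 0.065) followed by a retest with a 1.5-fold or larger significant decrease, p below 0.05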
Calls: active = confirmed: knock-down lowers infection; inactive = not picked or not confirmed
In all, the deposit lists about 22,000 reagents; below is a random part of those with a known target gene and a result. Over the whole deposit, 116 (0.52%) are marked active. 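Calls depend on retest data that are not deposited; infection was ranked per plate without normalising between plates; the unit of the infection score is not given.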 Raw values vary from plate to plate and are shown uncorrected. A plus sign joins genes that one reagent is predicted to hit. No sequences are given here. Not stated in the record: the amount of reagent, the time to read-out.

| gene knocked down | amplicon | infection score, replicate 1 | infection score, replicate 2 | cell count, replicate 1 | cell count, replicate 2 | Outcome |
| --- | --- | --- | --- | --- | --- | --- |
| Sf3a1 (Splicing factor 3a subunit 1) | DRSC15166 | 2.74 | 22.4 | 693 | 876 | inactive |
| SLIRP1 + anox | DRSC20542 | 6.4 | 4.56 | 6220 | 6468 | inactive |
| CG3071 | DRSC18526 | 7.9 | 3.36 | 6186 | 6610 | inactive |
| CG3071 | DRSC26289 | 20.4 | 5.78 | 4394 | 5432 | inactive |
| Rpt6 (Regulatory particle triple-A ATPase 6) | DRSC20571 | 10 | 1.58 | 6260 | 6081 | inactive |
| Rpt6 (Regulatory particle triple-A ATPase 6) | DRSC27933 | 18.1 | 8.2 | 5866 | 5686 | inactive |
| CG32365 | DRSC10040 | 3.16 | 3.19 | 6497 | 6016 | inactive |
| Sting | DRSC06615 | 14.4 | 32.8 | 6504 | 5589 | inactive |
| Sting | DRSC29477 | 28.7 | 11.7 | 4703 | 4623 | inactive |
| ReepA (Receptor expression enhancing protein A) | DRSC04572 | 15 | 12.2 | 6619 | 6567 | inactive |
| ReepA (Receptor expression enhancing protein A) | DRSC22475 | 6.44 | 13.8 | 5869 | 1258 | inactive |
| ReepA (Receptor expression enhancing protein A) | DRSC27058 | 6.43 | 4.41 | 6296 | 6824 | inactive |
| ReepA (Receptor expression enhancing protein A) | DRSC29893 | 9.19 | 13.3 | 5932 | 6163 | inactive |
| Br140 (Bromodomain-containing protein, 140kD) | DRSC06755 | 4.18 | 21.8 | 7137 | 6067 | inactive |
| GstZ1 (Glutathione S transferase Z1) | DRSC16478 | 2.28 | 9.74 | 6921 | 7239 | inactive |
| CG6209 | DRSC06968 | 26.9 | 7.4 | 4829 | 6477 | inactive |
| CG6209 | DRSC28800 | 19.6 | 20.4 | 5947 | 5569 | inactive |
| CG42784 | DRSC02534 | 21.9 | 22.7 | 5831 | 5691 | inactive |
| CG42784 | DRSC22804 | 0.58 | 12.5 | 5886 | 6358 | inactive |
| CG42784 | DRSC23000 | 1.18 | 6.25 | 5159 | 5823 | inactive |
| CG42784 | DRSC25815 | 5.38 | 3.39 | 6099 | 6280 | inactive |
| CG42784 | DRSC29731 | 13.3 | 5.18 | 6427 | 6371 | inactive |
| PolA1 (DNA polymerase alpha subunit 1) | DRSC16640 | 6.17 | 8.04 | 3921 | 3781 | inactive |
| PolA1 (DNA polymerase alpha subunit 1) | DRSC27879 | 31 | 13.6 | 3539 | 3818 | inactive |
| Pglym78 (Phosphoglyceromutase 78) | DRSC16787 | 7.03 | 6.07 | 6185 | 6775 | inactive |
| Pglym78 (Phosphoglyceromutase 78) | DRSC24626 | 1.11 | 1.83 | 6503 | 6179 | inactive |
| eg (eagle) | DRSC11885 | 2.6 | 5.07 | 6031 | 6366 | inactive |
| eg (eagle) | DRSC26147 | 5.76 | 4.59 | 6193 | 6564 | inactive |
| CG31106 | DRSC14655 | 1.71 | 3.05 | 6663 | 5929 | inactive |
| yin | DRSC18854 | 3.27 | 8.28 | 6549 | 6174 | inactive |
| yin | DRSC21889 | 5.35 | 6.74 | 6782 | 2595 | inactive |
| CG13085 | DRSC02189 | 3.47 | 3.36 | 5958 | 6674 | inactive |
| CG13085 | DRSC28099 | 7.57 | 4.82 | 6487 | 6431 | inactive |
| CG33128 | DRSC00294 | 1.11 | 2.33 | 5841 | 6486 | inactive |
| CG33128 | DRSC28698 | 14.9 | 8.89 | 4192 | 3115 | inactive |
| Cdlc2 (Cytoplasmic dynein light chain 2) | DRSC00743 | 0.84 | 5.18 | 6563 | 6385 | inactive |
| Cdlc2 (Cytoplasmic dynein light chain 2) | DRSC24865 | 5.09 | 5.69 | 6666 | 5990 | inactive |
| CG32536 | DRSC28001 | 19 | 7.54 | 4584 | 6778 | inactive |

An excerpt from above, showing only “infection score, replicate 1”:
ReepA (Receptor expression enhancing protein A) [DRSC27058]: 6.43
ReepA (Receptor expression enhancing protein A) [DRSC29893]: 9.19
Br140 (Bromodomain-containing protein, 140kD) [DRSC06755]: 4.18

The list goes on:
| gene knocked down | amplicon | infection score, replicate 1 | infection score, replicate 2 | cell count, replicate 1 | cell count, replicate 2 | Outcome |
| --- | --- | --- | --- | --- | --- | --- |
| CG3408 | DRSC10360 | 3.09 | 1.88 | 6110 | 6218 | inactive |
| CG13630 | DRSC14631 | 2.78 | 4.93 | 6654 | 6288 | inactive |
| Lrp4 (LDL receptor related protein 4) | DRSC20118 | 4.76 | 7.34 | 6555 | 5930 | inactive |
| p (pink) | DRSC16560 | 8.17 | 9.07 | 2498 | 1466 | inactive |
| p (pink) | DRSC27891 | 3.69 | 7.41 | 7082 | 6479 | inactive |
| metro (menage a trois) | DRSC06341 | 12.8 | 5.74 | 5509 | 6476 | inactive |
| metro (menage a trois) | DRSC06725 | 14.2 | 8.22 | 6603 | 7055 | inactive |
| metro (menage a trois) | DRSC27336 | 6.91 | 22.9 | 6568 | 6143 | inactive |
| Usp15-31 (Ubiquitin specific protease 15/31) | DRSC04426 | 8.27 | 15.3 | 6661 | 5275 | inactive |
| Usp15-31 (Ubiquitin specific protease 15/31) | DRSC24986 | 3.11 | 6.68 | 6144 | 6152 | inactive |
| mRpL39 (mitochondrial ribosomal protein L39) | DRSC10255 | 6.11 | 3.55 | 5287 | 5663 | inactive |
| Obp83ef (Odorant-binding protein 83ef) | DRSC12268 | 1.84 | 5.71 | 6408 | 6812 | inactive |
| Obp83ef (Odorant-binding protein 83ef) | DRSC30027 | 4.92 | 10.7 | 6685 | 6414 | inactive |
| wds (will die slowly) | DRSC18852 | 3.79 | 4.72 | 6175 | 6800 | inactive |
| shakB (shaking B) | DRSC20585 | 4.95 | 4.27 | 5720 | 6049 | inactive |
| shakB (shaking B) | DRSC22817 | 0.54 | 2.17 | 6643 | 738 | inactive |
| shakB (shaking B) | DRSC26262 | 11.5 | 7.2 | 5928 | 6198 | inactive |
| CG10232 | DRSC14218 | 4.89 | 10.8 | 5846 | 1512 | inactive |
| Ugt307A1 (UDP-glycosyltransferase family 307 member A1) | DRSC02138 | 12.6 | – | 3882 | 496 | inactive |
| CG9743 | DRSC16552 | 10.6 | 2.74 | 5252 | 6675 | inactive |
| CG9743 | DRSC28943 | – | – | 376 | 436 | inactive |
